Test results taken from PMC5934441 (2018).

B1: mouse Cxcl13 (ligand)
chain: ILEAHYTNLKCRCSGVISTVVGLNIIDRIQVTPPGNGCPKTEVVIWTKMKKVICVNPRAKWLQRLLRHVQSKSLSSTPQAPVSKRRAA
B2: mouse Cxcl14 (ligand)
chain: SKCKCSRKGPKIRYSDVKKLEMKPKYPHCEEKMVIVTTKSMSRYRGQEHCLHPKLQSTKRFIKWYNAWNEKRRVYEE
B3: mouse Cxcl11 (ligand)
chain: FLMFKQGRCLCIGPGMKAVKMAEIEKASVIYPSNGCDKVEVIVTMKAHKRQRCLDPRSKQARLIMQAIEKKNFLRRQNM
B4: mouse Ccl25 (ligand)
chain: QGAFEDCCLGYQHRIKWNVLRHARNYHQQEVSGSCNLRAVRFYFRQKVVCGNPEDMNVKRAMRILTARKRLVHWKSASDSQTERKKSNHMKSKVENPNSTSVRSATLGHPRMVMMPRKTNN
B5: mouse Ccl24 (ligand)
chain: VTIPSSCCTSFISKKIPENRVVSYQLANGSICPKAGVIFITKKGHKICTDPKLLWVQRHIQKLDAKKNQPSKGAKAVRTKFAVQRRRGNSTEV

Legend:
[1] = molecular target: T1, recombinant ECTV CrmD (cytokine response modifier D), C-terminally tagged with V5 and 6xHis (ectromelia virus (ECTV)); assay: SPR
T1 chain: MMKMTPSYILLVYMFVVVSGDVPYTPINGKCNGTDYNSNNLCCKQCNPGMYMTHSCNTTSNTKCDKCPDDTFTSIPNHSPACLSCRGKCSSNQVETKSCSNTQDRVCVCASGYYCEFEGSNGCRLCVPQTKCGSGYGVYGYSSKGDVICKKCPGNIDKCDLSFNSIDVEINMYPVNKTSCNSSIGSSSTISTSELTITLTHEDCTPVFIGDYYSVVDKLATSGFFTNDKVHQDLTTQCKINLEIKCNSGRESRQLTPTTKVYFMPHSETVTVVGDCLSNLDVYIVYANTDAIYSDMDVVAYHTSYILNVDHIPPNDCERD

[2] = molecular target: T1, recombinant ECTV CrmD (cytokine …); assay: SPR

Row | Binder | Kd [1] [nM] | koff [2] [s⁻¹]
1 | B1 | 13.2 | 0.00212
2 | B2 | 40.2 | 0.041
3 | B3 | 4.87 | 0.00242
4 | B4 | 4.86 | 0.00197
5 | B5 | 9 | 0.00287
